For some assays here: A negative result means that nothing was seen under these conditions. At least one verdict was read from the data and is not stated in words by the source. For some assays here: Where a protein sequence is shown, tags need not be part of it. For some assays here: The exact form of at least one protein or probe is not confirmed.
Experiments:
Test in all cases: SPR
[1] = system: CBC (HapB/HapC/HapE core CCAAT-binding complex) (Aspergillus fumigatus); settings: affinity not affected by 3' truncation, Kd only in figure; SPR Biacore T200, 25 C; 10 mM phosphate pH 7.4, 2.7 mM KCl, 137 mM NaCl, 1 mM DTT, 0.005% surfactant P20, 10 ug/ml poly(dI-dC); biotin-DNA on streptavidin CM3 chip; recombinant protein; label: 5' biotin on strand 1
[2] = target: T1, HapX(24-158) (Aspergillus fumigatus) (UniProt Q4WER3); settings: HapX alone, binding abolished by truncation of 3' submotif; SPR Biacore T200, 25 C; 10 mM phosphate pH 7.4, 2.7 mM KCl, 137 mM NaCl, 1 mM DTT, 0.005% surfactant P20, 10 ug/ml poly(dI-dC); biotin-DNA on streptavidin CM3 chip; recombinant protein; residues 24-158; label: 5' biotin on strand 1
T1 sequence (looked up): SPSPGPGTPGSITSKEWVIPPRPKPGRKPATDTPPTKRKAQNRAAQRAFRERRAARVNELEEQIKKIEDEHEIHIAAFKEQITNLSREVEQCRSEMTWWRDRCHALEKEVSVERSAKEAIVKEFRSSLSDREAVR

[3] = system: CBC (HapB/HapC/HapE core CCAAT-binding complex) + HapX(24-158); settings: HapX on preformed CBC/DNA (CBC itself binds), HapX binding strictly depends on 3' submotif; SPR Biacore T200, 25 C; 10 mM phosphate pH 7.4, 2.7 mM KCl, 137 mM NaCl, 1 mM DTT, 0.005% surfactant P20, 10 ug/ml poly(dI-dC); biotin-DNA on streptavidin CM3 chip; recombinant protein; label: 5' biotin on strand 1

Sequence	binding result [1]	binding result [2]	binding result [3]
AAATCCACCAATCAACGCCTCCGTGATTGTCAGC (double strand) [cccAp-369-34]	binds		
AAATCCACCAATCAACGCCTCCGTGATT (double strand) [cccAp-369-28]	binds	no binding	no binding
AAATCCACCAATCAACGCCTCCGTGATTGTCA (double strand) [cccAp-369-32]	binds		
